PubChem BioAssay AID504761 | Drosophila RNAi Screening Center – 2011

Purpose: 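Genome-wide fly cell screen for genes dengue virus requires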 (primary screen)
Cell system: D.Mel-2 cells from Drosophila
Knock-down reagent: long dsRNA against Drosophila genes
Conditions: infection with dengue virus type 2; dose and infection time not stated
Detection: 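Per well on two replicate plates, imaging gave the percent of cells positive for viral envelope protein, ranked by infection, and a nuclear count of cells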
Reading the numbers: infection score: higher = more virus-infected cells; cell count: higher = more cells in the well
Hit rule: 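Very low infection ranking in both replicate wells (chance probability at most 0.065), then a retest showing infection dropped 1.5-fold or more at p below 0.05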
Meaning of the calls: active = confirmed: knock-down lowers infection; inactive = not picked or not confirmed
The deposit covers about 22,000 reagents; shown is a random part of those that have a named target and a result. Over the whole deposit, 116 (0.52%) got an active call. 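Calls depend on retest data that are not deposited; infection was ranked per plate without normalising between plates; the unit of the infection score is not given.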 Raw values vary from plate to plate and are shown uncorrected. Further read-outs or replicates are left out here. Not given: the amount of reagent, the time to read-out.

| gene knocked down | dsRNA | infection score, replicate 1 | infection score, replicate 2 | cell count, replicate 1 | activity call |
| --- | --- | --- | --- | --- | --- |
| HIPP1 (GeneID 40302) | DRSC11748 | 14.8 | 8.85 | 6277 | inactive |
| HIPP1 (GeneID 40302) | DRSC27992 | 14.2 | 6.17 | 6010 | inactive |
| Adat1 (GeneID 34787) | DRSC03479 | 9 | 8.3 | 4953 | inactive |
| Adat1 (GeneID 34787) | DRSC27220 | 5.21 | 2.52 | 6393 | inactive |
| mRpL38 (GeneID 32375) | DRSC19734 | 7.71 | 9.47 | 4866 | inactive |
| mRpL38 (GeneID 32375) | DRSC29074 | 19.8 | 22.4 | 4144 | inactive |
| Cen (GeneID 35330) | DRSC02704 | 12.5 | 10.1 | 6623 | inactive |
| NimC1 (GeneID 34816) | DRSC01879 | 3.4 | 5.85 | 6207 | inactive |
| CCT1 (GeneID 42649) | DRSC16877 | 11.7 | 3.23 | 1860 | inactive |
| CCT1 (GeneID 42649) | DRSC26661 | 2.5 | 14.6 | 6168 | inactive |
| CG34348 (GeneID 32072) | DRSC19425 | 1.17 | 0.84 | 6650 | inactive |
| CG34348 (GeneID 32072) | DRSC19644 | 1.71 | 0.61 | 6788 | inactive |
| CG11095 (GeneID 32348) | DRSC19375 | 16.2 | 10.6 | 6765 | inactive |
| CG11095 (GeneID 32348) | DRSC26123 | 10.3 | 2.89 | 5879 | inactive |
| CG11034 (GeneID 33810) | DRSC02121 | 1.68 | 3.35 | 6009 | inactive |
| CG11034 (GeneID 33810) | DRSC02122 | 3.44 | 2.31 | 6449 | inactive |
| plum (GeneID 43197) | DRSC16054 | 5.29 | 2.04 | 6652 | inactive |
| RNF220 (GeneID 42690) | DRSC15652 | 1.7 | 14.9 | 6417 | inactive |
| RNF220 (GeneID 42690) | DRSC28017 | 16.9 | 18.8 | 6234 | inactive |
| CG13306 (GeneID 50301) | DRSC09976 | 2.09 | 0.31 | 6035 | inactive |
| Ras64B (GeneID 38494) | DRSC08689 | 4.23 | 14.6 | 6130 | inactive |
| Ras64B (GeneID 38494) | DRSC26766 | 4.03 | 14.6 | 6901 | inactive |
| MetRS-m (GeneID 41733) | DRSC16443 | 15.1 | 9.03 | 6526 | inactive |
| MetRS-m (GeneID 41733) | DRSC16515 | 5.36 | 2.93 | 6434 | inactive |

Reformatted: 2 of the entries above.
{"gene knocked down": "mRpL38 (GeneID 32375)", "dsRNA": "DRSC29074", "infection score, replicate 1": 19.8, "infection score, replicate 2": 22.4, "cell count, replicate 1": 4144, "activity call": "inactive"}
{"gene knocked down": "Cen (GeneID 35330)", "dsRNA": "DRSC02704", "infection score, replicate 1": 12.5, "infection score, replicate 2": 10.1, "cell count, replicate 1": 6623, "activity call": "inactive"}
